Series [1] has as its system HIV-1 (IIIB). Briefly: Antiviral assay in MT-4 cells. The note with it: read-out: MT4 EC50; HIV-1 (IIIB) replication in MT-4 cells, 5 days, Cell Titer Glo. The class given is cell-based.
For series [2], the system named is MT-4 cells. Briefly: Cytotoxicity assay in MT-4 cells. To be noted: read-out: MT4 CC50; uninfected MT-4 cells, 5 days, Cell Titer Glo. A general note: Cellular ATP, detected with luciferase, serves as a proxy for viable cell number.

pEC50: −log10 of the molar value.

As usually defined, the pEC50 is −log10 of the EC50, conventionally taken in molar units. As a reminder, the CC50 is the concentration at which the toxic effect on the cells reaches its halfway point. With `CC1=NO[C@@]2(CC[C@H](C)N3C[C@H]2n2cc(C(=O)NCc4ccc(F)cc4F)c(=O)c(OC(=O)N(CCN(CC(=O)O)C(=O)OCOP(=O)(O)O)CC(=O)O)c2C3=O)C1`, the pEC50 in series [1] is 8.67. Further, in series [2], the CC50 was 10.6 µM.

With `CC1=NO[C@@]2(CC[C@H](C)N3C[C@H]2n2cc(C(=O)NCc4ccc(F)cc4F)c(=O)c(OC(=O)N(CCOP(=O)(O)O)CC(=O)O)c2C3=O)C1`, the pEC50 in series [1] was 8.71.

On to `CC1=NO[C@@]2(CC[C@H](C)N3C[C@H]2n2cc(C(=O)NCc4ccc(F)cc4F)c(=O)c(OC(=O)N(C)C)c2C3=O)C1`, for which the pEC50 in series [1] was 7.00. Further, the CC50 in series [2] is 50 µM.

On to `CC1=NO[C@@]2(CC[C@H](C)N3C[C@H]2n2cc(C(=O)NCc4ccc(F)cc4F)c(=O)c(OC(=O)N(C)CCN(CC(=O)O)C(=O)OCOP(=O)(O)O)c2C3=O)C1`, for which the pEC50 in series [1] is 8.76. For the same molecule, the CC50 in series [2] came out at 17.8 µM.

`CC1=NO[C@@]2(CC[C@H](C)N3C[C@H]2n2cc(C(=O)NCc4ccc(F)cc4F)c(=O)c(OC(=O)N(C)CCN(C)C(=O)OCOP(=O)(O)O)c2C3=O)C1`: the pEC50 in series [1] is 8.79. In series [2], the CC50 is 17.5 µM.
